From PubChem BioAssay AID504594 (Broad Institute, 2011) come the findings set out here.

The list shows a part of the results, in another mix than the full data. Active and inactive are the calls of the source.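 Rule for the calls: active = growth inhibition of at least 75% in every replicate, which also brings the mean inhibition to 75% or more; inconclusive = mean inhibition 75% or more but some replicate under 75%; inactive = the rest.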

The nature of the assay: growth inhibition of PfHsp90-dependent yeast, primary screen, antimalarial PfHsp90 inhibitor project, S. cerevisiae, BacTiter-Glo luminescence (AID 504594).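 Note: 0% = DMSO neutral control wells and 100% = 20 µM radicicol control wells; higher value means stronger growth inhibition because the sign is flipped.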 Particulars: S. cerevisiae expressing PfHsp90, BacTiter-Glo growth, 48 h; at 9.4 µM; stronger effect = higher value.
For the molecule `CN(C(=O)Cc1ccc(Cl)c(Cl)c1)[C@@H]1CCCC[C@H]1N1CCCC1`, the growth inhibition was inactive: 6.66%.
